Measured values from several laboratories, pooled; numbers as filed in NIAID ChemDB.

Common to all: whole-cell or culture tests; organism: HIV-1; read by: p24; read-out: EC50

ECn: concentration that inhibits the pathogen or its effect by n%.

| structure | cell line | changes | strain or isolate | value |
|---|---|---|---|---|
| O=C(CCCCCNC(=O)[C@H](CCCCNC(=O)c1cccc(O)c1C(=O)O)NC(=O)OCc1ccccc1)N[C@@H](CCCCNC(=O)c1cccc(O)c1C(=O)O)C(=O)OCc1ccccc1 | C8166 |  | IIIB | 10 µM |
| O=C(O)[C@H]1O[C@@H](Oc2cc3oc(-c4ccc(O)cc4)cc(=O)c3c(O)c2O)[C@H](O)[C@@H](O)[C@@H]1O | PBMC |  | KM018 Clinical isolate | 136 µM |
| Cc1cc(C)cc(S(=O)(=O)c2c(C(=O)NNCCO)[nH]c3ccc(Cl)cc23)c1 | C8166 |  | IIIB WT | <0.006 µM |
| CN1CCN(S(=O)(=O)N(C)C2COCCn3c2nc(C(=O)NCc2ccc(F)cc2)c(O)c3=O)CC1 | MT-4 |  |  | <1 µM |
| CC1=CC[C@@H]([C@@H](C)[C@H]2CC[C@@]3(C)[C@@H]4C[C@@H](O)[C@H]5C(C)(C)OC(=O)C=C[C@@]56C[C@@]46CC[C@]23C)OC1=O | H9 |  | IIIB | >8.6 µg/mL |
| CCn1cc(C(=O)O)c(=O)c2cc(F)c(N3CCN(c4ccccc4OC)CC3)c(OC(F)F)c21 | PBMC |  |  | 0.32 µM |
| NCCCC[C@H](NC(=O)OCc1ccccc1)C(=O)NCCCCCC(=O)N[C@@H](CCCCN)C(=O)OCc1ccccc1 | C8166 |  | IIIB | 80 µM |
| Nc1nc(NC2CC2)c2ncn([C@H]3C=C[C@@H](CO)C3)c2n1 | MDM + PBMC |  | SF162 | >0.5 µM |
| CCc1cn([C@@H]2C[C@H](O)[C@@H](CO)O2)c(=O)[nH]c1=O | H9 |  | IIIB | 10 µM |
| Cn1cc(C(=O)O)c(=O)c2cc(N)c(N3CCN(c4nc5ccccc5o4)CC3)cc21 | PBMC |  | IIIB | 0.043 µg/mL |
| CN1CCn2c(nc(C(=O)NCc3cccc(Cl)c3)c(O)c2=O)C(N(C)C(=O)C(=O)N(C)C)C1 | MT-4 |  |  | <1 µM |
| O=C(O)C/C(=C/C(=O)NCCCC[C@H](NC(=O)OCc1ccccc1)C(=O)N[C@@H](CCCCNC(=O)/C=C(/CC(=O)O)C(=O)O)C(=O)OCc1ccccc1)C(=O)O | C8166 |  | IIIB | 10 µM |
| COC(=O)C(C)NP(=O)(OC[C@@H]1C=C[C@H](n2cc(C)c(=O)[nH]c2=O)O1)OCC(Cl)(Cl)Cl | C8166 |  | IIIB | 0.2 µM |
| CCOCn1c(Cc2ccccc2)c(C(C)C)c(=O)[nH]c1=O | PBMC |  | CC2 | 0.01 µM |
| CC(C)(C)[Si](C)(C)O[C@H]1[C@H](n2cnc3c(N)ncnc32)O[C@H](CO)C12CS(=O)(=O)C=C2N | MT-4 |  | IIIB | >200 µg/mL |
| NCCCC[C@H](NC(=O)[C@H](CCCCN)NC(=O)[C@H](CCCCN)NC(=O)c1ccccc1)C(N)=O | C8166 |  | IIIB | 200 µM |
| Cc1nnc(CN2CCn3c(nc(C(=O)NCc4ccc(F)cc4)c(O)c3=O)C2(C)C)o1 | MT-4 |  |  | <1 µM |
| CC[C@@]1(O)C(=O)OCc2c1cc1n(c2=O)Cc2cc3c(CN(C)C)c(O)ccc3nc2-1 | PBMC |  | IIIB | 0.01 µM |
| CN(C)C(=O)C(=O)N1CCc2nc(C(=O)NCc3ccc(F)cc3)c(O)c(=O)n2CC1 | MT-4 |  |  | <50 µM |
| COC(=O)[C@H](C)NP(=O)(OC[C@@H]1C=C[C@H](n2cc(C)c(=O)[nH]c2=O)O1)Oc1ccccc1 | CEM + CEM TK- |  | IIIB | 0.145 µM |
| CC(C)=CCOc1cc(NC(=S)c2ccsc2C)ccc1Cl | PBMC |  | WEJO | 0.007 µM |
| Cn1cc(C(=O)O)c(=O)c2cc(N)c(N3CCN(c4cccc(C(F)(F)F)c4)CC3)cc21 | PBMC |  | IIIB | 0.056 µg/mL |
| CC(C)(C)[Si](C)(C)OC[C@H]1O[C@@H](n2ccc(=O)[nH]c2=O)[C@H](O[Si](C)(C)C(C)(C)C)C12OS(=O)(=O)C=C2N | MT-4 |  | IIIB | >1.6 µg/mL |
| C=C(C)[C@@H]1CC[C@]2(C(=O)NCCCCCCCC(=O)N[C@@H](CC(C)C)[C@@H](O)CC(=O)O)CC[C@]3(C)[C@H](CC[C@@H]4[C@@]5(C)CC[C@H](O)C(C)(C)[C@@H]5CC[C@]43C)[C@@H]12 | HeLa P4 + HeLa | I84S | LAI-R(GP41-I84S) | >10 µM |
| COC(=O)[C@H](C)NP(=O)(OC[C@@H]1C=C[C@H](n2cc(C)c(=O)[nH]c2=O)O1)Oc1ccc(OC)cc1 | CEM + CEM TK- |  | IIIB | 0.106 µM |
| CN1CCn2c(nc(C(=O)NCc3ccc(F)cc3)c(O)c2=O)C1 | MT-4 |  |  | <50 µM |
| O=C(O)CCC(=O)NCCCC[C@H](NC(=O)OCc1ccccc1)C(=O)NCCCCCC(=O)N[C@@H](CCCCNC(=O)CCC(=O)O)C(=O)OCc1ccccc1 | C8166 |  | IIIB | 100 µM |
| O=C1CCC(=O)N1CCCCCCc1ccc2c3ccccc3c3ccccc3c2c1 | H9 |  | NL4-3 | >100 µM |
| Cc1cn([C@@H]2O[C@H](CO[Si](C)(C)C(C)(C)C)[C@@H](O)[C@H]2O[Si](C)(C)C(C)(C)C)c(=O)[nH]c1=O | MT-4 |  | IIIB | >1.6 µg/mL |
| CC(C)(C)NC(=O)[C@@H]1CCCN1C(=O)[C@@H](O)[C@H](Cc1ccccc1)NC(=O)[C@H](CC(N)=O)NC(=O)OCc1ccccc1 | MOLT-4 |  | C-2 | ~10 µM |
| Cc1cc(S(=O)(=O)Nc2nnc3c4ccccc4cnn23)c(S)cc1Cl | CEM |  | Calanolide-resistant | 26.5 µM |
| Cc1nc(CN2CCn3c(nc(C(=O)NCc4ccc(F)cc4)c(O)c3=O)C2(C)C)no1 | MT-4 |  |  | <1 µM |
| O=C(N[C@@H](CCCCNC(=O)c1c(O)cccc1C(=O)O)C(=O)OCc1ccccc1)OCc1ccccc1 | C8166 |  | IIIB | >500 µM |
| Cc1cn([C@H]2C[C@H](O[Si](C)(C)C(C)(C)C)[C@@H](CO)O2)c(=O)[nH]c1=O | MT-4 |  | IIIB | >20 µg/mL |
| CC(C)[C@H](NC(=O)OCc1ccccn1)C(=O)N[C@@H](Cc1ccccc1)[C@@H](O)C[C@H](Cc1ccccc1)NC(=O)OCc1cccnc1 | MT-4 | PR-L63P V82T | NL4-3 | <1.5 µM |

A second listing of 2 rows from above:

structure	cell line	changes	strain or isolate	value
COC(=O)C(C)NP(=O)(OC[C@@H]1C=C[C@H](n2cc(C)c(=O)[nH]c2=O)O1)OCC(Cl)(Cl)Cl	C8166		IIIB	0.2 µM
O=C(O)C/C(=C/C(=O)NCCCC[C@H](NC(=O)OCc1ccccc1)C(=O)N[C@@H](CCCCNC(=O)/C=C(/CC(=O)O)C(=O)O)C(=O)OCc1ccccc1)C(=O)O	C8166		IIIB	10 µM

Blank or dashed fields: not listed here. Lines come from different laboratories, so protocols vary.